Pooled drug test results. Numbers come from NIAID ChemDB, via PubChem.

All rows: growth or infection tests; species: HIV-1; cell line: CEM + CEM-SS; endpoint: fold resistance

Blank or dashed fields: not listed here. Fold resistance: result on the changed form divided by that on wild type. Rows are shuffled and stem from different studies.

compound,strain or isolate,changes,method,value
CC(C)=CCOc1cc(NC(=S)c2ccoc2C)ccc1Cl,4XAZT+L100I (RT D67N K70R L100I T215Y K219Q),RT-D67N K70R L100I T215Y K219Q,p24,33
c1ccc(CN2CCc3cncn3CC2)cc1,Nevirapine-resistant,RT-Y181C,RT activity,1.4
CC(C)=CCOc1cc(NC(=S)c2ccoc2C)ccc1Cl,NL4-3 (RT M184V),RT-M184V,cytopathic effect / XTT,3.33
CCc1c[nH]c(=O)c(N)c1Sc1cc(C)cc(C)c1,N119(RT-Y181C),RT-Y181C,cytopathic effect / MTT,29.6
COc1ccccc1C(=O)Nc1ccc(Cl)c(C(=O)OC(C)C)c1,UC040-R (RT-Y181C),RT-Y181C,cytopathic effect / XTT,5.23
CCCCCCCCCCCCCCCC(=O)Nc1ccn([C@H]2CC[C@@H](COP(=O)(O)OC[C@H]3O[C@@H](n4cc(C)c(=O)[nH]c4=O)C[C@@H]3N=[N+]=[N-])O2)c(=O)n1,D148/89 (AZT-resistant RT M41L D67N K70R T215Y),RT-M41L D67N K70R T215Y,cytopathic effect / XTT,0.3
CCCCCCCCCCCCCCCC(=O)Nc1ccn([C@H]2CC[C@@H](COP(=O)(O)O[C@H]3C[C@H](n4cc(C)c(=O)[nH]c4=O)O[C@@H]3CO)O2)c(=O)n1,OC-resistant RT L100I,Oxathiin carboxanilide-resistant RT L100I,cytopathic effect / XTT,3.16
Cc1occc1C(=S)Nc1ccc(Cl)c(C(=O)OCC2CC2)c1,4XAZT/Y181C (RT D67N K70R Y181C T215Y K219Q),RT-D67N K70R Y181C T215Y K219Q,cytopathic effect / XTT,2.2
CN(C)C1=C(C#N)/C(=C2/C(C#N)=C(N(C)C)N(c3ccc([N+](=O)[O-])cc3)c3c2n(C)c2ccccc32)c2c(c3ccccc3n2C)N1c1ccc([N+](=O)[O-])cc1,Calanolide-resistant (RT T139I),RT-T139I,cytopathic effect / XTT,1.34
CSc1nc2c(c(N(C)C)n1)C=Nn1c(nc3ccccc31)S2,OC(RT-L100I),RT-L100I,cytopathic effect / XTT,0.1
CC=CCOc1cc(NC(=S)c2ccoc2C)ccc1OC,CALO(RT-T139I),RT-T139I,cytopathic effect / XTT,3
Cc1cc(C)cc(C(=O)c2c(C(C)C)c(=O)[nH]c(=O)n2CC2=CCCC2)c1,-,RT-K103N,cytopathic effect / XTT,80
CC(C)=CCOc1cc(NC(=S)c2ccsc2C)ccc1Cl,NL4-3 (RT A98G),RT-A98G,cytopathic effect / XTT,1.5
Cc1occc1C(=S)Nc1ccc(Cl)c(C(=O)OCC(F)(F)F)c1,CALO(RT-T139I),RT-T139I,cytopathic effect / XTT,1.8